From patent US10414808B2 (priority 2012, dated 2019)
Read-outs that look alike come from different tables or passages of the source.

Chains of the proteins cited; added tags and fusions are not shown.
UniProt Q99250, whole entry, looked up: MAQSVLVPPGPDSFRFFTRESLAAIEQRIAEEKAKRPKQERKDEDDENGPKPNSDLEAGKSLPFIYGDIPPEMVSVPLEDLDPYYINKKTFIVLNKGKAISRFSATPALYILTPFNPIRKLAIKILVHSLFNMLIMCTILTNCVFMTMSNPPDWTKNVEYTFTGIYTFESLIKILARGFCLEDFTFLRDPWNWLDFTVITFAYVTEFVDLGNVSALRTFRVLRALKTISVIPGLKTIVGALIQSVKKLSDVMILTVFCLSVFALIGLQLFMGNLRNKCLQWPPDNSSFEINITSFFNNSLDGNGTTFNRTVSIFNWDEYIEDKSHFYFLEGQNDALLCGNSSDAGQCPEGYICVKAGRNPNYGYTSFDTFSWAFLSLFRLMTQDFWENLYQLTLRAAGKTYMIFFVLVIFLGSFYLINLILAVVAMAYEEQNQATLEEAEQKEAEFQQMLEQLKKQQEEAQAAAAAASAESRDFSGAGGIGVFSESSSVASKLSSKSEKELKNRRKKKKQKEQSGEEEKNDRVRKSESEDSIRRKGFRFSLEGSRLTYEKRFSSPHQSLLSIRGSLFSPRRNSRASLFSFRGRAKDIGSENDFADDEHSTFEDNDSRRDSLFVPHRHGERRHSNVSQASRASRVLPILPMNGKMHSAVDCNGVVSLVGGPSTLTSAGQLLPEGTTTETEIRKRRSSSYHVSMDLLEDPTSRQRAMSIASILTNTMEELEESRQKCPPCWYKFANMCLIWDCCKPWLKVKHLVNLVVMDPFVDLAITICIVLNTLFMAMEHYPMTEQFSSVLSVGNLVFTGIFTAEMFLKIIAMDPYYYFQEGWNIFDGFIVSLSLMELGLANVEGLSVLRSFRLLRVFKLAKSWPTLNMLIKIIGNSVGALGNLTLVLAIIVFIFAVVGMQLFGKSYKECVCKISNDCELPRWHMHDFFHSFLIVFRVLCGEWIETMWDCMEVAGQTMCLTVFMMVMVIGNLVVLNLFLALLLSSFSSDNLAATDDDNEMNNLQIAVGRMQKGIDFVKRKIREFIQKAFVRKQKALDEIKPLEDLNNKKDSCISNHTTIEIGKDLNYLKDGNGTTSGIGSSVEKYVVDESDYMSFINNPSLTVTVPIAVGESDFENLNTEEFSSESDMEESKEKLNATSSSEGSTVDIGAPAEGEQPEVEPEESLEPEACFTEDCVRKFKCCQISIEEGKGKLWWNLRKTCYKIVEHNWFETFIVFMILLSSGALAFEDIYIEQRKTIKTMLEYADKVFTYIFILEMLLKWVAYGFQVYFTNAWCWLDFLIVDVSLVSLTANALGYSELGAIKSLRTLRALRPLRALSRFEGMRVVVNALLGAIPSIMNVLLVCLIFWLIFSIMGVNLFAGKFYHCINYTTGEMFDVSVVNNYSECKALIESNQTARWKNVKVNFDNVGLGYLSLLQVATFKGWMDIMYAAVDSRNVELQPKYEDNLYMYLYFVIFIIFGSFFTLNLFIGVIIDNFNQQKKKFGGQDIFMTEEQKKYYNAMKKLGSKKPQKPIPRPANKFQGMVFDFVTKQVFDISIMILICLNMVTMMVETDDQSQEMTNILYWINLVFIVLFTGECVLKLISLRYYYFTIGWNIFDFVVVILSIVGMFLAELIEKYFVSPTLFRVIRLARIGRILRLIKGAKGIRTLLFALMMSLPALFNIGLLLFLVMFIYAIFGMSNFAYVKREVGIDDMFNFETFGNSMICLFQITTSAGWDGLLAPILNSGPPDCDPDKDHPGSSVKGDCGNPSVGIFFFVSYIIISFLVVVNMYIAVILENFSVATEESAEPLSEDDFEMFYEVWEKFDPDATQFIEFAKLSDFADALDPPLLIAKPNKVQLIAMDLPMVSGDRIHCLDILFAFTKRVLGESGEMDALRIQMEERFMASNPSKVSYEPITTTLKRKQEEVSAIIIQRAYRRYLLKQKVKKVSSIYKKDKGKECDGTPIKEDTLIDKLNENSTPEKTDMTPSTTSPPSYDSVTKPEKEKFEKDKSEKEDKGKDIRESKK
UniProt Q15858, whole entry W1161R, looked up: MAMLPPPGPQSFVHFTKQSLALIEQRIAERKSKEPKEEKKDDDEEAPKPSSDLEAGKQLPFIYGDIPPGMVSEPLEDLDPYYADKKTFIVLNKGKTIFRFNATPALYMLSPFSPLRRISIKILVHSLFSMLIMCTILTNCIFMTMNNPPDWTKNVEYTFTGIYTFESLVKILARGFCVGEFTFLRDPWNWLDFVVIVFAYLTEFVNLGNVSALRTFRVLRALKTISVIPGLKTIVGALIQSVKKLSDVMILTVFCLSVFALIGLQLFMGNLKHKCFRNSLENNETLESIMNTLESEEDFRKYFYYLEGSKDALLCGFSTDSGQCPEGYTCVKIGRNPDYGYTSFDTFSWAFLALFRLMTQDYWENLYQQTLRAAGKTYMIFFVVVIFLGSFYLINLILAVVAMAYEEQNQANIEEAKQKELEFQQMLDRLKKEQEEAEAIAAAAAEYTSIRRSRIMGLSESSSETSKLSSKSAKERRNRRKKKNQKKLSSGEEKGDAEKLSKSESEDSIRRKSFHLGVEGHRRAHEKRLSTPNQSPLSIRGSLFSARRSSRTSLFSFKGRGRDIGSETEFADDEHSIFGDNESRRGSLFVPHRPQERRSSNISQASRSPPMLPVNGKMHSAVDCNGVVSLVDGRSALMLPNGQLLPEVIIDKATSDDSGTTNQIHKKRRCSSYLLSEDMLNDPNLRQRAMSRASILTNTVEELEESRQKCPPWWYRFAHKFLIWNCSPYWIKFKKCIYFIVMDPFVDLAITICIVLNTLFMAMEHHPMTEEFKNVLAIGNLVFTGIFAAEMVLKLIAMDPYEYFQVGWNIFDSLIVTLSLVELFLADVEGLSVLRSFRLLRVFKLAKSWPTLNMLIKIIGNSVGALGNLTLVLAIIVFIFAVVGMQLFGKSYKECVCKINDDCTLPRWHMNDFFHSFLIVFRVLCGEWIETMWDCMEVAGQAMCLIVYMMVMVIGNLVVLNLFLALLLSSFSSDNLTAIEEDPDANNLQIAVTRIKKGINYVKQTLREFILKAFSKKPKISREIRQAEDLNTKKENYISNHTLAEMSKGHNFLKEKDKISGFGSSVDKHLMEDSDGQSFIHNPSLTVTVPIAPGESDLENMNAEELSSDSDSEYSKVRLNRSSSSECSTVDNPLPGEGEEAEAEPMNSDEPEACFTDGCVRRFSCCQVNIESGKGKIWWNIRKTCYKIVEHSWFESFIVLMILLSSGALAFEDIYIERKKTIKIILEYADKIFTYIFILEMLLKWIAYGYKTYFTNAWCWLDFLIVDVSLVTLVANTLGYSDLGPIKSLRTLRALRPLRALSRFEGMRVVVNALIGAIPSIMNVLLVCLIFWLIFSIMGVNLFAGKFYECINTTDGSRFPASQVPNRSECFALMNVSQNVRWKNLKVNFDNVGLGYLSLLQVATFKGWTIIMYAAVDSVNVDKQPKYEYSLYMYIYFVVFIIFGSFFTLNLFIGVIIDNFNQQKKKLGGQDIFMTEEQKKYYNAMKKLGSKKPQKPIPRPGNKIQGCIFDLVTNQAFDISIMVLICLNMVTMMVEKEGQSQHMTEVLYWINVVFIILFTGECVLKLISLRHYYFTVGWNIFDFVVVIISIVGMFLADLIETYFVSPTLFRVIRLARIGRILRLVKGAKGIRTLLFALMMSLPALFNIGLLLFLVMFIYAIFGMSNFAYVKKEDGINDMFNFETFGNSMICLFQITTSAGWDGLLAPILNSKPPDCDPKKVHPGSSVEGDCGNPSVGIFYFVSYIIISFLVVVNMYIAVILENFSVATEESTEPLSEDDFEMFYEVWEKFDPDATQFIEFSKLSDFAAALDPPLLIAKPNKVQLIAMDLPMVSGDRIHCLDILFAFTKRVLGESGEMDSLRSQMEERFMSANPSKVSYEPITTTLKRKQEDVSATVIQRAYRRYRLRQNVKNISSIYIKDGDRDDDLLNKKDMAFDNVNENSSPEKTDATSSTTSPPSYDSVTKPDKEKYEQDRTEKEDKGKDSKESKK

Key:
Nav1.2 [1] = biological target: T1, Nav1.2 (Homo sapiens, UniProt Q99250); experiment: IC50 (Nav1.2) µM; settings: read-out: IC50 (Nav1.2) µM
Nav1.2 [2] = biological target: T1, Nav1.2; experiment: IC50 (Nav1.2) µM; settings: read-out: IC50 (Nav1.2) µM; remark: listed apart in the source
Nav1.7 [3] = biological target: T2, Nav1.7 (Homo sapiens, UniProt Q15858, W1161R); experiment: IC50 (Nav1.7) µM; settings: read-out: IC50 (Nav1.7) µM
Nav1.7 [4] = biological target: T2, Nav1.7; experiment: IC50 (Nav1.7) µM; settings: read-out: IC50 (Nav1.7) µM; remark: listed apart in the source

Structure (SMILES) | IC50 (Nav1.2 [1]) | IC50 (Nav1.2 [2]) | IC50 (Nav1.7 [3]) | IC50 (Nav1.7 [4])
CC[C@H](C)[C@@H]1NC(=O)[C@H](CCCNC(=N)N)NC(=O)[C@H](CC(C)C)NC(=O)[C@@H](NC(=O)[C@H](CC(N)=O)NC(=O)[C@@H]2CCCN2C(=O)CN)CSSC[C@@H]2NC(=O)[C@@H]3CSSC[C@@H](C(=O)N[C@@H](CCCCN)C(=O)N[C@@H](Cc4ccc(O)cc4)C(=O)N[C@@H](CO)C(=O)N[C@H](C(=O)N[C@H](C(=O)N[C@@H](CCCCN)C(=O)O)[C@@H](C)CC)[C@@H](C)CC)NC(=O)[C@H](Cc4c[nH]c5ccccc45)NC(=O)[C@H](CCCNC(=N)N)NC(=O)[C@H]([C@@H](C)O)NC(=O)[C@H](CCCCN)NC(=O)[C@H](CCCCN)NC(=O)[C@H](CO)NC(=O)[C@H](CSSC[C@H](NC(=O)[C@H](C)NC(=O)[C@H](CCCCN)NC(=O)[C@H](Cc4ccccc4)NC1=O)C(=O)N[C@@H](CC(N)=O)C(=O)N1CCC[C@H]1C(=O)N[C@@H](CO)C(=O)N[C@@H](CC(N)=O)C(=O)N[C@@H](CC(=O)O)C(=O)N[C@@H](CCC(N)=O)C(=O)N3)NC(=O)[C@H](C(C)C)NC(=O)[C@H](CC(C)C)NC(=O)[C@H](CCCCN)NC(=O)[C@H](CO)NC(=O)[C@H](CO)NC(=O)[C@H](CCCCN)NC2=O | 0.87 µM | 0.32 µM | 0.02 µM | 0.04 µM
CC[C@H](C)[C@H](NC(=O)[C@H](CO)NC(=O)[C@H](Cc1ccc(O)cc1)NC(=O)[C@H](CCCCN)NC(=O)[C@@H]1CSSC[C@@H]2NC(=O)[C@H](CCC(N)=O)NC(=O)[C@H](CC(=O)O)NC(=O)[C@H](CC(N)=O)NC(=O)[C@H](CO)NC(=O)[C@@H]3CCCN3C(=O)[C@H](CC(N)=O)NC(=O)[C@@H]3CSSC[C@H](NC(=O)[C@H](C(C)C)NC(=O)[C@H](CC(C)C)NC(=O)[C@H](CCCCN)NC(=O)[C@H](CO)NC(=O)[C@H](CO)NC(=O)[C@H](CCCCN)NC(=O)[C@H](CSSC[C@H](NC(=O)[C@H](CCC(=O)O)NC(=O)[C@@H]4CCCN4C(=O)CN)C(=O)N[C@@H](CC(C)C)C(=O)N[C@@H](CCC(=O)O)C(=O)N[C@@H]([C@@H](C)CC)C(=O)N[C@@H](Cc4ccccc4)C(=O)N[C@@H](CCCCN)C(=O)N[C@@H](C)C(=O)N3)NC2=O)C(=O)N[C@@H](CO)C(=O)N[C@@H](CCCNC(=N)N)C(=O)N[C@@H](CCCCN)C(=O)N[C@@H]([C@@H](C)O)C(=O)N[C@@H](CCCNC(=N)N)C(=O)N[C@@H](Cc2c[nH]c3ccccc23)C(=O)N1)C(=O)NCC(=O)N[C@@H](CCCCN)C(=O)O | 0.04 µM | 0.08 µM | 0.02 µM | 0.03 µM
CC[C@H](C)[C@H](NC(=O)[C@H](CCC(N)=O)NC(=O)[C@H](Cc1ccc(O)cc1)NC(=O)[C@H](CCCCN)NC(=O)[C@@H]1CSSC[C@@H]2NC(=O)[C@H](CCC(N)=O)NC(=O)[C@H](CC(=O)O)NC(=O)[C@H](CC(N)=O)NC(=O)[C@H](CO)NC(=O)[C@@H]3CCCN3C(=O)[C@H](CC(N)=O)NC(=O)[C@@H]3CSSC[C@H](NC(=O)[C@H](C(C)C)NC(=O)[C@H](CC(C)C)NC(=O)[C@H](CCCCN)NC(=O)[C@H](CO)NC(=O)[C@H](CO)NC(=O)[C@H](CCCCN)NC(=O)[C@H](CSSC[C@H](NC(=O)[C@H](CCC(=O)O)NC(=O)[C@@H]4CCCN4C(=O)CN)C(=O)N[C@@H](CC(C)C)C(=O)N[C@@H](CCCNC(=N)N)C(=O)N[C@@H]([C@@H](C)CC)C(=O)N[C@@H](Cc4ccccc4)C(=O)N[C@@H](CCCCN)C(=O)N[C@@H](C)C(=O)N3)NC2=O)C(=O)N[C@@H](CO)C(=O)N[C@@H](CCCNC(=N)N)C(=O)N[C@@H](CCCCN)C(=O)N[C@@H]([C@@H](C)O)C(=O)N[C@@H](CCCNC(=N)N)C(=O)N[C@@H](Cc2c[nH]c3ccccc23)C(=O)N1)C(=O)NCC(=O)N[C@@H](CCCCN)C(=O)O | 0.01 µM | 0.02 µM | 0.02 µM | 0.01 µM
